Experimental data taken from PubChem BioAssay (NCI).
The list shows a part of the results, in another mix than the full data.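 Negative percent growth values reflect cell death: -40 means 40% of the cells present at the start died, and -100 means all died.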 The source made the active and inactive calls. The calls were made as follows: active = growth percent below 10; inactive = the rest.

Tested on: MDA-MB-468 breast
Assay: NCI-60 one-dose screen, 48 h (100 = growth as untreated, 0 = no growth, -100 = all killed)
Settings: 10 µM

O=C(O)Cc1ccc(N(CCCl)CCCl)cc1 was tested, and the growth was inactive: 105%.
